According to paper PMC13098282:
For at least one entry, the source does not settle the construct or the ends of the probe. Negatives hold for the conditions tested. Where a protein sequence is shown, tags need not be part of it.

Target: T1, Crp2 (Mycobacterium smegmatis) (UniProt A0R5H1)
T1 sequence (looked up, limits assumed): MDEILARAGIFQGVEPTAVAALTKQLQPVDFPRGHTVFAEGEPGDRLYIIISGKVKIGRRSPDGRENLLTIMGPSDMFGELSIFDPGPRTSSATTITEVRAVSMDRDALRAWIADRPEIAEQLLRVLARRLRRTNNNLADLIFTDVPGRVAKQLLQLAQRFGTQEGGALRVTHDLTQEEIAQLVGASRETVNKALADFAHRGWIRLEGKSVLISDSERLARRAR
Experiment: EMSA
Details: 20 mM HEPES pH 7.6, 1 mM EDTA, 10 mM (NH4)2SO4, 1 mM DTT, 0.2% Tween 20, 30 mM KCl, 310 fmol DNA in 20 uL, 0/25/75 ng protein (Fig S7: 1 or 3 uM), 15 min, recombinant protein, label: DIG (kit, stated as 5' end), probe letters rebuilt from the primers and the genome

“GACCGGCGAGATGTCTGGAAGTTCGTCGATCGCATTCTGACCGGCACTGTGACCGTTGCTGGCCATTCCATCCTCCCGCTCGGAGTTTCGGCGACGCGGCAAACATATCCTCGCCTATGCGCGGATGCCTATCGCTTTCGCGCAATTCCTGTCCGGATTGCGCAAAGATAGGTGCTCTCATGCGCGTCTGACGATCAGGAGGGTTGCGGTGCGGGACCGAAATCCGTTATCGCTGACCAAAGTTAGGCTTTCCTTAGCTCGCGTATCAGGCCGGGCGTTGCTGGGGGTTCCCGGATGTCACGGCTGACCCGGCTCGGGTTCATCGACATCCGCCGCACCAGCGATCCCGTGCGGCGAAAGGTGCGCAGCCGCGGCGTCCCGCCCGCGCTGGCCGATCACGAGATCTTCTACACCGAGGACGTCCGCGAGGCCGCGCGTCTGGTCG (double strand) [Phuc (huc promoter)]”: no binding (50 mM cAMP); no binding (no cAMP).
